Experiment: SAXS d-spacing of peptide-induced aggregates
Conditions: POPE/POPG; 4 h after lipid-peptide mixing, 37°C; [P]/[L] = 1:25, [P] ~ 1.1 mM

| Substance | final d-value (d-spacing, end-state) [nm] |
| --- | --- |
| H-FWRIRIRR-NH2 [LF11-215, H-FWRIRIRR-NH2] | 5.53 |
| H-PFFWRIRIRR-NH2 [LF11-324, H-PFFWRIRIRR-NH2] | 5.12 |

— publication PMC8757871, “Bridging the Antimicrobial Activity of Two Lactoferricin Derivatives in E. coli and Lipid-Only Membranes” (Frontiers in Medical Technology, 2021)
